Results deposited as PubChem BioAssay AID1259414 (Drosophila RNAi Screening Center, 2018).
Test: 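Fly genes that alter Wolbachia amount inside host cells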 (primary screen). Cells: Drosophila JW18 cells infected with Wolbachia. Knock-down reagent: long dsRNA against Drosophila genes, 0.25 µg dsRNA per well of a 384-well plate. Duration: 5 days. Treatment: cells persistently infected with Wolbachia before knock-down; no added drug. Measured: 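Imaged fluorescence in situ signal for Wolbachia 23S rRNA per DAPI-counted host cell, given as a robust z-score within each plate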. Reading the numbers: Wolbachia per cell robust z: higher = more Wolbachia per host cell than the plate typical. Rule for the call: 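Hit when robust z is 1.5 or more, or -1.5 or less, in at least two of three replicates; excludes dsRNAs with several or no targets, genes not expressed in JW18 and well A1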.
The screen tested about 24,000 reagents; shown is a random part of those with a known target gene and a result. In the full data, about 1,210 (5%) were called active. 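Inactive calls also include excluded dsRNAs with several or no targets, genes unexpressed in JW18, and well A1, regardless of score.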 Reagents against one gene are numbered here.

Gclm (Glutamate-cysteine ligase modifier subunit) #1
- Wolbachia per cell robust z, rep 1: 1.37
- Wolbachia per cell robust z, rep 2: 0.0707
- Wolbachia per cell robust z, rep 3: 1.07
- activity call: inactive

Gclm (Glutamate-cysteine ligase modifier subunit) #2
- Wolbachia per cell robust z, rep 1: 0.558
- Wolbachia per cell robust z, rep 2: -0.646
- Wolbachia per cell robust z, rep 3: 0.185
- activity call: inactive

Septin2 (Septin 2)
- Wolbachia per cell robust z, rep 1: -0.0161
- Wolbachia per cell robust z, rep 2: 0.521
- Wolbachia per cell robust z, rep 3: -0.953
- activity call: inactive

Cyp310a1 (Cytochrome P450 310a1) #1
- Wolbachia per cell robust z, rep 1: -0.0527
- Wolbachia per cell robust z, rep 2: 0.567
- Wolbachia per cell robust z, rep 3: -1.8
- activity call: inactive

Cyp310a1 (Cytochrome P450 310a1) #2
- Wolbachia per cell robust z, rep 1: -1.06
- Wolbachia per cell robust z, rep 2: -3.89
- Wolbachia per cell robust z, rep 3: 0.124
- activity call: inactive

cue (cueball)
- Wolbachia per cell robust z, rep 1: 0.797
- Wolbachia per cell robust z, rep 2: 1.44
- Wolbachia per cell robust z, rep 3: 0.884
- activity call: inactive

sbb (scribbler) #1
- Wolbachia per cell robust z, rep 1: 0.527
- Wolbachia per cell robust z, rep 2: 0.665
- Wolbachia per cell robust z, rep 3: 1.04
- activity call: inactive

sbb (scribbler) #2
- Wolbachia per cell robust z, rep 1: 0.957
- Wolbachia per cell robust z, rep 2: 0.302
- Wolbachia per cell robust z, rep 3: 0.789
- activity call: inactive

sbb (scribbler) #3
- Wolbachia per cell robust z, rep 1: 0.507
- Wolbachia per cell robust z, rep 2: 1.08
- Wolbachia per cell robust z, rep 3: 0.531
- activity call: inactive

sbb (scribbler) #4
- Wolbachia per cell robust z, rep 1: 0.264
- Wolbachia per cell robust z, rep 2: -0.531
- Wolbachia per cell robust z, rep 3: -0.39
- activity call: inactive

3 of these entries in another layout:
target gene	reagent no.	Wolbachia per cell robust z, rep 1	Wolbachia per cell robust z, rep 2	Wolbachia per cell robust z, rep 3	activity call
Septin2 (Septin 2)	1	-0.0161	0.521	-0.953	inactive
Cyp310a1 (Cytochrome P450 310a1)	1	-0.0527	0.567	-1.8	inactive
Cyp310a1 (Cytochrome P450 310a1)	2	-1.06	-3.89	0.124	inactive

Continued.
CG4887 #1
- Wolbachia per cell robust z, rep 1: 0.887
- Wolbachia per cell robust z, rep 2: -4.63
- Wolbachia per cell robust z, rep 3: 0.774
- activity call: inactive

CG4887 #2
- Wolbachia per cell robust z, rep 1: 0.139
- Wolbachia per cell robust z, rep 2: 0.25
- Wolbachia per cell robust z, rep 3: 0.797
- activity call: inactive

CG4887 #3
- Wolbachia per cell robust z, rep 1: 0.115
- Wolbachia per cell robust z, rep 2: -0.121
- Wolbachia per cell robust z, rep 3: 0.00121
- activity call: inactive

stg (string) #1
- Wolbachia per cell robust z, rep 1: 6.93
- Wolbachia per cell robust z, rep 2: 7.84
- Wolbachia per cell robust z, rep 3: 4.1
- activity call: active

stg (string) #2
- Wolbachia per cell robust z, rep 1: -6.16
- Wolbachia per cell robust z, rep 2: -1.12
- Wolbachia per cell robust z, rep 3: -1.39
- activity call: inactive

stg (string) #3
- Wolbachia per cell robust z, rep 1: -0.259
- Wolbachia per cell robust z, rep 2: 0.337
- Wolbachia per cell robust z, rep 3: 0.561
- activity call: inactive

CG7058 #1
- Wolbachia per cell robust z, rep 1: -0.162
- Wolbachia per cell robust z, rep 2: -0.521
- Wolbachia per cell robust z, rep 3: -0.0108
- activity call: inactive

CG7058 #2
- Wolbachia per cell robust z, rep 1: 1.25
- Wolbachia per cell robust z, rep 2: 0.33
- Wolbachia per cell robust z, rep 3: 0.0318
- activity call: inactive

mab-21 #1
- Wolbachia per cell robust z, rep 1: -0.378
- Wolbachia per cell robust z, rep 2: 0.325
- Wolbachia per cell robust z, rep 3: -0.294
- activity call: inactive

mab-21 #2
- Wolbachia per cell robust z, rep 1: 0.0156
- Wolbachia per cell robust z, rep 2: 0.628
- Wolbachia per cell robust z, rep 3: 0.0643
- activity call: inactive

IFT46 (Intraflagellar transport 46)
- Wolbachia per cell robust z, rep 1: -1.33
- Wolbachia per cell robust z, rep 2: -0.196
- Wolbachia per cell robust z, rep 3: -0.445
- activity call: inactive

Atg16 (Autophagy-related 16) #1
- Wolbachia per cell robust z, rep 1: -1.61
- Wolbachia per cell robust z, rep 2: 0.851
- Wolbachia per cell robust z, rep 3: 0.477
- activity call: inactive

Atg16 (Autophagy-related 16) #2
- Wolbachia per cell robust z, rep 1: 0.375
- Wolbachia per cell robust z, rep 2: -3.39
- Wolbachia per cell robust z, rep 3: 0.309
- activity call: inactive

Atg16 (Autophagy-related 16) #3
- Wolbachia per cell robust z, rep 1: 0.198
- Wolbachia per cell robust z, rep 2: 0.464
- Wolbachia per cell robust z, rep 3: 0.934
- activity call: inactive
